Holding throughout (test): MIC and MBC, broth micro-dilution
Type in all cases: cell-based
On the technique in general: In broth dilution the organism is exposed to a series of concentrations in liquid medium.

One assay deals with Escherichia coli. The settings on record: E. coli.
Another assay concerns Klebsiella pneumoniae. The settings on record: K. pneumoniae.
Another assay deals with Pseudomonas aeruginosa. The settings on record: P. aeruginosa.
The subject of the next assay is Staphylococcus aureus. The settings on record: S. aureus.
Assay [1] has as its system Staphylococcus epidermidis. The settings on record: S. epidermidis.

In brackets after ≈: the same amount, converted by molar mass. A value given as a limit tells only on which side of the number the result lay.

Turning to `COc1cc(Cc2cnc(N)nc2N)cc(OC)c1OC` [AB-2, trimethoprim], the MBC – broadly, the lowest tested concentration that kills the bacteria rather than only halting them – with Escherichia coli was 6.25 µg/mL (≈ 21.5 µM); against Klebsiella pneumoniae, 12.5 µg/mL (≈ 43.1 µM); against Pseudomonas aeruginosa it was above 200 µg/mL; in the assay with Staphylococcus aureus, 3.13 µg/mL (≈ 10.8 µM); in assay [1], above 200 µg/mL. Besides, the MIC (commonly the smallest concentration in the dilution series that meets the test's criterion for growth inhibition) is 1.56 µg/mL (≈ 5.37 µM) in the assay on Escherichia coli (24 h), 6.25 µg/mL (≈ 21.5 µM) against Klebsiella pneumoniae (24 h), 1.56 µg/mL (≈ 5.37 µM) against Staphylococcus aureus (24 h) and above 200 µg/mL in assay [1] (24 h).
